Patent EP0606747A1, “Tilmicosin and derivatives for treating gram-positive diseases of aquatic species” (ELI LILLY AND COMPANY, priority 1992, dated 1994)
Marks after values point to notes of the source that are not given here.

Experiment: Test 3: palatability and growth study in Atlantic salmon, tilmicosin base versus phosphate salt
Type: in vivo, Atlantic salmon (Salmo salar)
Details: 800 mg/kg of diet (free base equivalent), four weeks; for Feed conversion / Mean feeding rate (%BW) / Total feed intake (g) / Total tank weight gain (%BW) / Total tank weight gain (g): three tanks of 30 fish, spread in brackets
Method: Test 3: Palatability and Growth Studies in Atlantic Salmon, Comparing Tilmicosin Base and Phosphate Salt
A trial was conducted to determine the palatability to Atlantic salmon (Salmo salar), St. John River strain, of diets containing either tilmicosin (free base) or tilmicosin phosphate. Pre-smolt salmon, each weighing about 50 grams, from a certified disease free stock, were used. The salmon, 30 per tank and 9 tanks, were acclimatized for about two weeks. During this period and throughout the trial, the tanks were maintained with fresh single-pass flow-through well water, 2 liters per minute, 12 ± 1°C., and the photoperiod was 12/12. During the acclimatization, all fish were fed a standard feed. Thereafter the salmon in three tanks continued to receive the standard diet, to serve as a control. The salmon in three other tanks received a modified diet containing 800 mg of tilmicosin (free base) per kilogram of diet; the salmon in the last three tanks received a modified diet containing tilmicosin phosphate in an amount equivalent to 800 mg of tilmicosin (free base) per kilogram of diet. All fish were fed to satiation, defined as the point at which there is a noticeable decline in the feeding response. Feed was supplied 3× on weekdays and 1× on weekend days. The trial was continued for a four-week period, during which these parameters were evaluated: feed intake feed intake as % of body weight weight gain weight gain as % of body weight feed conversion All surviving fish were euthanized. The results are set forth in the following table; mean values with the same alphabetic superscript were not statistically different at the 0.05 level.

Molecule | rate of consumption versus unmedicated diets | Feed conversion | Mean feeding rate (%BW) | Total feed intake (g) | Total tank weight gain (%BW) | Total tank weight gain (g)
CC[C@H]1OC(=O)C[C@@H](O)[C@H](C)[C@@H](O[C@@H]2O[C@H](C)[C@@H](O)[C@H](N(C)C)[C@H]2O)[C@@H](CCN2C[C@H](C)C[C@H](C)C2)C[C@@H](C)C(=O)/C=C/C(C)=C/[C@@H]1CO[C@@H]1O[C@H](C)[C@@H](O)[C@@H](OC)[C@H]1OC [tilmicosin] | consumed at the same rate as unmedicated diets | 0.79 (0.02)^a | 1.40 (0.06)^a %BW | 658.9 (22.9)^a g | 53.5 (0.9)^a %BW | 831.0 (51.8)^a g
tilmicosin phosphate | consumed at the same rate as unmedicated diets | 0.78 (0.04)^a | 1.38 (0.02)^a %BW | 625.5 (15.5)^a g | 53.7 (3.9)^a %BW | 802.3 (52.9)^a g
